This note sets out measurements from article PMC11053136 (Nature Communications, 2024).

Test [1] deals with T1, PLY-C428A (Streptococcus pneumoniae, UniProt Q7ZAK5, C428A). The note with it: 6 µM.
The target of test [2] is T1, PLY-C428A. To be noted: 2, 4 and 8 µM.

As to `Cc1cc(C)cc(N2C(=O)NC(=O)/C(=C\c3ccc(-c4ccc(Cl)cc4Cl)o3)C2=O)c1` [PB-3], on PLY-C428A [1], the “Activity against PLY-C428A in LDH assay” value is “inactive”. The “BLI response on immobilized PLY-C428A” value at PLY-C428A [2] is recorded as “no response”.
